# Laboratory results reported in PubChem BioAssay AID1478 (National Center for Advancing Translational Sciences (NCATS), 2009).
# By UniProt entry, the sequences of proteins in these tests, tags left out. Residues count along the entry.
# UniProt P25779, 123-467 limits assumed: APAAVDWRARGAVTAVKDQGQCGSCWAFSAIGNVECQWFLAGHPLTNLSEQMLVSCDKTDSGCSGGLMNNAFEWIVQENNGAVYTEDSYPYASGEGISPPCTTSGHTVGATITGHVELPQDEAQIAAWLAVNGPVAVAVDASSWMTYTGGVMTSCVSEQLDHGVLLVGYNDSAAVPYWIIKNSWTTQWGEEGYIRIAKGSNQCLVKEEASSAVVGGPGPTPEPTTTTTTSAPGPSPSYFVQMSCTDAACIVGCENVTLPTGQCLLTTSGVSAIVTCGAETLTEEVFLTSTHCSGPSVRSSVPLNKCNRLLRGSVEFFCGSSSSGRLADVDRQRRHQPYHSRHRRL
# The entries are a selection whose mix differs from that of the whole data set. Active and inactive are the calls of the source. Calls follow the shape of the dose curve; as a rule, active = well fitted inhibition curve with a large enough effect; inconclusive = small, poorly fitted or top-dose-only effect; inactive = flat fitted curve, though single readings scatter.
# Biological target: Cruzipain (Trypanosoma cruzi) (UniProt P25779)
# Assay: qHTS Assay for Promiscuous and Specific Inhibitors of Cruzain (with detergent); also: nearly all actives have a fitted effect of over 40% in size
# Settings: purified cruzain, Z-FR-AMC fluorescence, 0.01% Triton
# Experimental: Cruzain (3.4.22.51) is a cysteine protease from the tropical parasite Trypanosoma cruzi. Dual qHTS experiment was performed against the NCGC compound collection in order to 1) identify novel inhibitors of the enzyme and 2) profile the compound collection for promiscuous inhibitors operating via colloidal aggregation (by performing detergent-free and detergent-containing comparison screens). Cruzain was assayed by the use of fluorogenic coumarin-based substrate Z-FR-AMC: proteolytic cleavage releases AMC, whose fluorescence is measured at 360 nm excitation and 450 nm emission. Purified cruzain was supplied by the labs of Prof. James McKerrow and Brian Shoichet, UC San Francisco.
# This assay had 0.01% Triton X-100 concentration. See also releated assay "qHTS Assay for Promiscuous and Specific Inhibitors of Cruzain (without detergent)" with 0.00005% Triton X-100.
# See following references for additional details:
# Assay Provider: Shoichet, Brian; University of California, San Fancisco
# Screening Center PI: Austin, C.P.
# Screening Center: NIH Chemical Genomics Center [NCGC]
# Buffer: 100 mM Sodium Acetate, pH 5.5, 5 mM DTT, Triton X-100 concentration: 0.01%.
# Buffer in columns 3 and 4 as negative control (no enzyme).
# Substrate solution: 2 uM final concentration of Z-FR-AMC (catalog number I-1160, Bachem) dispensed throughout the plate.
# Enzyme: 1.5 nM Cruzain final concentration in columns 1, 2, 5-48. Column 1 is neutral (100% activity). Column 2 contained titration of covalent inhibitor K11777, starting concentration 1 mM, then 1:2 dilution in duplicate).
# Three uL of enzyme or buffer were dispensed to 1536-well Greiner black solid bottom plates. Compounds and controls (23 nL) were transferred via Kalypsys PinTool. The plates were incubated for 15 min at room temperature, and then 1 uL of substrate solution was added to start the reaction. The plates were immediately transferred to and read 4 times every 30 seconds for 2 min on ViewLux High-throughput CCD imager (Perkin-Elmer) using 360 nm excitation and 450 nm emission fluorescence protocol. The fluorescence intensity difference between the third and the first time points (time lapse of 60 seconds) was used to compute reaction progress.
row,SMILES,"max response, negative = inhibition"
1,CN1CCN(CCOC(=O)C(O)(c2ccccc2)c2ccccc2)CC1,inactive: -1.98%
2,O=C(NCC1(N2CCOCC2)CCCCC1)c1cc(=O)[nH]c2ccccc12,inactive: 5.24%
3,CCCOc1cccc(C(=O)NCC2(N3CCOCC3)CCCCC2)c1,inactive: 1.67%
4,CCOc1ccc(C(=O)NCC2(N3CCOCC3)CCCCC2)cc1,inactive: 0.0962%
5,N#CC1(Nc2ccccc2)CCN(CCc2ccccc2)CC1,inactive: 3.37%
6,CCCCOc1ccccc1C(=O)NCC1(N2CCOCC2)CCCCC1,inactive: -3.17%
7,O=C(NCC1(N2CCOCC2)CCCCC1)c1ccccc1Br,inactive: -0.811%
8,NC1CCCCC1.NP(=O)(O)N(CCCl)CCCl,inactive: 1.91%
9,CCOP(=O)(Cl)Cl,inactive: -0.988%
10,O=C(OC1CN2CCC1CC2)C1c2ccccc2Oc2ccccc21 (stereo not given),inactive: -2%
11,O=C(NCC1(N2CCOCC2)CCCCC1)c1cc2ccccc2o1,inactive: -1.24%
12,COc1ccc(NC2CCN(CCc3ccccc3)CC2)c(OC)c1,inactive: 1.15%
13,COc1ccccc1C(=O)NCC1(N2CCOCC2)CCCCC1,inactive: -0.42%
14,O=C(NCC1(N2CCOCC2)CCCCC1)c1ccc(Cl)cc1,inactive: 20.5%
15,CC(C)(C)c1ccc(C(=O)NCC2(N3CCOCC3)CCCCC2)cc1,inactive: 7.3%
16,Cc1ccccc1C(=O)NCC1(N(C)C)CCCCC1,inactive: -1.06%
17,CCN1CCC(Nc2cccc(F)c2)CC1,inactive: 1.8%
18,Fc1ccccc1NC1CCN(Cc2ccccc2)CC1,inactive: 2.47%
19,CN(C)C1(CNC(=O)c2ccc(C(C)(C)C)cc2)CCCCC1,inactive: 0.849%
20,CCC(CO)(C(=O)OC1CN2CCC1CC2)c1ccccc1 (stereo not given),inactive: 0.151%
21,COc1cc(C(=O)NCC2(N3CCOCC3)CCCCC2)cc(OC)c1OC,inactive: -0.17%
22,O=C(O)C1(Nc2ccccc2)CCN(Cc2ccccc2)CC1,inactive: 7.01%
23,CCOc1ncccc1C(=O)NCC1(N2CCOCC2)CCCCC1,inactive: -0.532%
24,O=C(OC1CN2CCC1CC2)C1c2ccccc2C=Cc2ccccc21 (stereo not given),inactive: 1.32%
25,N/C(=N\O)c1c(N)no[n+]1[O-],inactive: 1.46%
26,c1ccc(CN2CCC(Nc3ccccc3)CC2)cc1,inactive: 5.46%
27,O=C(NCC1(N2CCOCC2)CCCCC1)c1ccccc1,inactive: 1.08%
28,ClCCOP(OCCCl)OCCCl,inactive: -0.963%
29,O=C(NCC1(N2CCOCC2)CCCCC1)c1ccc([N+](=O)[O-])cc1,inactive: 10.2%
30,O=C(NCC1(N2CCOCC2)CCCCC1)c1ccccc1[N+](=O)[O-],inactive: -2.53%
